What was measured:
[1] = Peripheral blood lipid mediator profiles during self-resolving E. coli infections in mice; type: in vivo; settings: endogenous level, E. coli 1×10^5 CFU/mouse
[2] = Plasma lipid mediator levels in reference plasma, healthy volunteers and sepsis patients (LC-MS-MS); type: in vivo, human; settings: endogenous level; for Reference Plasma lipid mediator level: NIST SRM 1950 plasma, mean; for Healthy Volunteer lipid mediator level / Sepsis Patients Plasma lipid mediator level: plasma; for Healthy Volunteer lipid mediator level: n=4, mean; for Sepsis Patients Plasma lipid mediator level: n=9, mean
[3] = Peripheral blood lipid mediator profiles pre and post-exercise in healthy volunteers (LC-MS-MS); type: in vivo, human; settings: endogenous level, mean, n=4

Structure (SMILES)	lipid mediator level 0 h [1] [pg/mL]	lipid mediator level 4 h [1] [pg/mL]	lipid mediator level 12 h [1] [pg/mL]	lipid mediator level 24 h [1] [pg/mL]	lipid mediator level 48 h [1] [pg/mL]	Reference Plasma lipid mediator level [2]	Healthy Volunteer lipid mediator level [2]	Sepsis Patients Plasma lipid mediator level [2] [pg/mL]	Post-Exercise lipid mediator level [3] [pg/mL]	Pre-Exercise lipid mediator level [3] [pg/mL]
CCCCC[C@H](O)/C=C/[C@@H]1[C@@H](C/C=C\CCCC(=O)O)[C@@H](O)C[C@H]1O [PGF2a]	3.3	153.0	57.5	12.2	26.7	1.7 pg/mL	4.2 pg/mL	51.0	12.9	4.4
CC/C=C\C[C@H](O)/C=C/C=C\C=C\C=C\[C@@H](O)[C@@H](O)C/C=C\CCC(=O)O [RvD1]	5.5	51.0	27.6	12.8	15.5	0.8 pg/mL	1.8 pg/mL	4.6	4.6	1.0
CC/C=C\C[C@H](O)[C@H](O)/C=C/C=C/C=C\C=C\[C@@H](O)C/C=C\CCC(=O)O [RvD2]	8.1	16.0	22.7	4.0	2.2	0.9 pg/mL	1.5 pg/mL	3.7	1.5	1.1
CC/C=C\C[C@H](O)/C=C/C=C\C[C@@H](O)/C=C/C=C/C=C\[C@@H](O)CCC(=O)O [RvD3]	2.6	6.3	2.7	1.1	6.1	* (*below limits; limits ~0.1 pg.)	* (*below limits; limits ~0.1 pg.)	10.5	0.5	0.4
CC/C=C\C[C@H](O)/C=C/C=C\C/C=C\C=C\[C@@H](O)C/C=C\CCC(=O)O [RvD5]	22.7	16.9	25.1	8.7	9.2	0.8 pg/mL	0.9 pg/mL	17.0	0.9	0.7
CC[C@@H](O)/C=C/C=C\C[C@@H](O)/C=C/C=C/C=C\[C@@H](O)CCCC(=O)O [RvE1]	0.6	0.2	2.2	0.6	2.7	* (*below limits; limits ~0.1 pg.)	2.2 pg/mL	11.0	1.5	0.6
CC[C@@H](O)/C=C/C=C\C/C=C\C/C=C\C=C\[C@@H](O)CCCC(=O)O [RvE2]	14.0	88.5	139.0	85.0	44.4	* (*below limits; limits ~0.1 pg.)	3.7 pg/mL	24.7	32.5	39.1
CC[C@H](O)C(O)/C=C/C=C/C=C\C/C=C\C/C=C\CCCC(=O)O (stereo partly drawn) [RvE3]	39.4	229.4	356.3	155.7	104.9	1.5 pg/mL	8.9 pg/mL	361.3	69.3	29.1
CCCCC[C@H](O)/C=C/[C@H]1OC(O)C[C@H](O)[C@@H]1C/C=C\CCCC(=O)O (stereo partly drawn) [TxB2]	24.9	1773.7	471.4	214.3	176.5	6.3 pg/mL	10.5 pg/mL	185.4	36.2	4.8

From patent US11555006B2, “Elucidation of novel 13-series resolvins that increase with atorvastatin and clear infections” (The Brigham and Women's Hospital, Inc., priority 2015, dated 2023)
